Measured values from several laboratories, pooled; numbers as filed in NIAID ChemDB.

Shared fields: growth or infection tests

Blank or dashed fields: not listed here. A number after MIC or MFC names an inhibition level or a share of isolates. Neighbouring rows are from separate reports. ECn is the concentration giving n% inhibition of infection, replication or growth.

smiles | method | endpoint | species | strain | value
CCCCCCCCCCCC(=O)C1=C(O)C(C)(C)C(=O)C(C)(C)C1=O | - | MIC | Enterococcus faecalis | Vancomycin-resistant | 2 µg/mL
Cc1c(N2CC[C@@H]([C@H](C)N)C2)c(F)cn2c(=O)c(C(=O)O)cc(C3CC3)c12 | - | MIC | Enterococcus faecium | ATCC 8043 | 0.02 µg/mL
CC[C@H](NC)C1CCN(c2c(F)cn3c(=O)c(C(=O)O)cc(C4CC4)c3c2C)C1 | - | MIC | Enterococcus faecium | ATCC 8043 | 0.2 µg/mL
C[C@H]1CN(c2c(F)cc3c(=O)c(C(=O)O)cn(C4CC4)c3c2OC(F)F)CCN1 | - | MIC90 | Enterococcus faecium | 10 strains | 4 µg/mL
Cc1c(N2C[C@@H](N)[C@H](C3CC3)C2)c(F)cn2c(=O)c(C(=O)O)cc(C3CC3)c12 | - | MIC | Enterococcus faecium | ATCC 8043 | 0.05 µg/mL
CC1(C)C(=O)C(C(=O)CCc2ccccc2)=C(O)C(C)(C)C1=O | - | MIC | Enterococcus faecalis | Vancomycin-resistant | 31 µg/mL
Cc1c(N2C[C@@H]3CCCN[C@@H]3C2)c(F)cn2c(=O)c(C(=O)O)cc(C3CC3)c12 | - | MIC | Enterococcus faecium | ATCC 8043 | 0.2 µg/mL
Cc1c(N2CCC3(CCC[C@H]3N)C2)c(F)cn2c(=O)c(C(=O)O)cc(C3CC3)c12 | - | MIC | Enterococcus faecium | ATCC 8043 | 0.1 µg/mL
CC1(C)C(=O)C(C(=O)CC2CCCCC2)=C(O)C(C)(C)C1=O | - | MIC | Enterococcus faecalis | Vancomycin-resistant | 15 µg/mL
CN(C)[C@@H]1C(=O)C(C(N)=O)=C(O)[C@@]2(O)C(=O)C3=C(O)c4c(O)c(NC(=O)CNc5ccccc5)cc(F)c4C[C@H]3C[C@@H]12 | agar diffusion | EC50 | Enterococcus faecalis | 159-tet | 2 µg/mL
Cc1c(N2CCC[C@H](N)C2)c(F)cn2c(=O)c(C(=O)O)cc(C3CC3)c12 | - | MIC | Enterococcus faecium | ATCC 8043 | 0.05 µg/mL
Cc1c(N2CCC(C(C)N)C2)c(F)cn2c(=O)c(C(=O)O)cc(C3CC3)c12 | - | MIC | Enterococcus faecium | ATCC 8043 | 0.02 µg/mL
CCCCCC(=O)C1=C(O)C(C)(C)C(=O)C(C)(C)C1=O | - | MIC | Enterococcus faecalis | Vancomycin-resistant | 31 µg/mL
C[C@H]1C[C@H](N)CN1c1cc2c(cc1F)c(=O)c(C(=O)O)cn2-c1ccc(F)cc1F | - | MIC | Enterococcus faecium | ATCC 8043 | 0.12 µg/mL
CC1(C)C(=O)C(C(=O)Cc2ccccc2)=C(O)C(C)(C)C1=O | - | MIC | Enterococcus faecalis | Vancomycin-resistant | 63 µg/mL
Cc1c(N2CC[C@H](N)C2)c(F)cn2c(=O)c(C(=O)NCC(=O)O)cc(C3CC3)c12 | - | MIC | Enterococcus faecium | ATCC 8043 | 50 µg/mL

Repeating the first 2 entries:

smiles | method | endpoint | species | strain | value
CCCCCCCCCCCC(=O)C1=C(O)C(C)(C)C(=O)C(C)(C)C1=O | - | MIC | Enterococcus faecalis | Vancomycin-resistant | 2 µg/mL
Cc1c(N2CC[C@@H]([C@H](C)N)C2)c(F)cn2c(=O)c(C(=O)O)cc(C3CC3)c12 | - | MIC | Enterococcus faecium | ATCC 8043 | 0.02 µg/mL